B1: Compound 2 (PaT2) (peptide)
peptide: QMDMRCSASVECKQKCLKAIGRGFGKCMNKKCKCYPR
modifications: not checked
B2: Compound 23 (peptide)
peptide: NMDMRCSASVECKQKCLKAIGSIFGKCMNKKCKCYPRRRTA
modifications: not checked

Experiments:
Assay in all cases: cell-based or functional assay
[1] = target: T1, human Kv1.2 potassium channel (α-subunit) (human), P16389
T1 chain: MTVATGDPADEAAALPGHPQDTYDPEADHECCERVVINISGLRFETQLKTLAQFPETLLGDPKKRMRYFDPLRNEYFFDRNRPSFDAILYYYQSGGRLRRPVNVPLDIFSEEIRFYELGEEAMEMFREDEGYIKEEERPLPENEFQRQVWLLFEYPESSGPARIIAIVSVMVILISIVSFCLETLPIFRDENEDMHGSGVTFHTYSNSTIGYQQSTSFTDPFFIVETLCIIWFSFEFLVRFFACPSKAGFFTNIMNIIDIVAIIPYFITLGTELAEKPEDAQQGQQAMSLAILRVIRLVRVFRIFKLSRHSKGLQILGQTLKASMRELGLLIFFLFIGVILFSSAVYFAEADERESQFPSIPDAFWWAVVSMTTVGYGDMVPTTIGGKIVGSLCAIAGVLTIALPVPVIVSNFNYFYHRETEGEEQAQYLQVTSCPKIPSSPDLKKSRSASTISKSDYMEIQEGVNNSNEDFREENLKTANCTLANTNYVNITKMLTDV

[2] = target: T2, human Kv1.6 potassium channel (α-subunit) (human), P17658
T2 chain: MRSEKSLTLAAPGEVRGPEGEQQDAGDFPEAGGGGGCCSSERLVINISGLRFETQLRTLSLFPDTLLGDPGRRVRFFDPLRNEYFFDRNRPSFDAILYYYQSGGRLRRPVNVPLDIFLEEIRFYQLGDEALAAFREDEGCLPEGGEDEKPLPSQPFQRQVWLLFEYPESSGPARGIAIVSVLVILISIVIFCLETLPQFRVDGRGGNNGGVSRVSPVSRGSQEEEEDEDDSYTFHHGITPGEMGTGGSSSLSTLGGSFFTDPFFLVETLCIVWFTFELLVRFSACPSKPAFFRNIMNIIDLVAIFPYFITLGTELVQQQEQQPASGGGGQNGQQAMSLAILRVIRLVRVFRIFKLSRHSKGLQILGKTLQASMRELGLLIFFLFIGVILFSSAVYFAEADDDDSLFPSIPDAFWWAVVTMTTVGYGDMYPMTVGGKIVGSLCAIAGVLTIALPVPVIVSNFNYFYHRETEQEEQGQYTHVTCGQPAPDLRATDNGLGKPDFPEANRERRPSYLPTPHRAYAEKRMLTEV

[3] = target: human Kv1.3 potassium channel (potassium voltage-gated channel subfamily A member 3, α-subunit) (human), P22001
[4] = target: T3, human Kv1.1 potassium channel (α-subunit) (human), Q09470
T3 chain: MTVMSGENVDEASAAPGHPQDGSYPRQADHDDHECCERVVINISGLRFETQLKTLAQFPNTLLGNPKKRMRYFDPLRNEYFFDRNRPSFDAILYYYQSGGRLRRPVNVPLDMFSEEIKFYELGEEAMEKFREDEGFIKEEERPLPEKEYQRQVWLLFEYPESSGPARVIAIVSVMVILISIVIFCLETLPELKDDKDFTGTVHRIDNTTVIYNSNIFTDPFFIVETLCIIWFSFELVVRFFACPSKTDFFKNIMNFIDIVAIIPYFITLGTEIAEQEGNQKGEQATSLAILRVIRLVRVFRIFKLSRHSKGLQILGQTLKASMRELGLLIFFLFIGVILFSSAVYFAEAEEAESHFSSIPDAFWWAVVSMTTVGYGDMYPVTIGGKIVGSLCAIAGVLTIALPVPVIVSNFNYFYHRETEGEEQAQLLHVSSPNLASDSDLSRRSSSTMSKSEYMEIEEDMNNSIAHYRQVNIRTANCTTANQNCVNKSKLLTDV

[5] = target: human Kv1.3 voltage-gated K+ channel (human), P22001
[6] = target: T4, Kv1.3 ion channel (rat, endogenous on T cells in rat whole blood) (rat), P15384
T4 chain: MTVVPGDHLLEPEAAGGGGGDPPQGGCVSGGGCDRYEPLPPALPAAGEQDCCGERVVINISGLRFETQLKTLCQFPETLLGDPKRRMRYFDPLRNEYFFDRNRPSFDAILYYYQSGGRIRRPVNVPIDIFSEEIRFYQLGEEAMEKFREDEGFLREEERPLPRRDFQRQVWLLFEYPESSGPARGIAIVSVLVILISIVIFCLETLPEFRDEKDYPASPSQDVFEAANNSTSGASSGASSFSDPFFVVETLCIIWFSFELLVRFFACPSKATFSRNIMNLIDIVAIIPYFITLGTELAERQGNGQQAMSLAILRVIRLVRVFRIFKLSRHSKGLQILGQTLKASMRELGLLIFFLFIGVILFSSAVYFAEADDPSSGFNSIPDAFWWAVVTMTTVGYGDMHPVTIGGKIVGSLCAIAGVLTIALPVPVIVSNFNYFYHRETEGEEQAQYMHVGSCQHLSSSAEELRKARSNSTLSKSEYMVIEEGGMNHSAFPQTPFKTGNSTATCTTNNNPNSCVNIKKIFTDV

Row | Binder | Potency IC50 (patch clamp) [1] [nM] | Selectivity Kv1.2/Kv1.3 [1] | Potency IC50 (patch clamp) [2] [nM] | Selectivity Kv1.6/Kv1.3 [2] | Potency IC50 (patch clamp) [3] [nM] | Potency IC50 (patch clamp) [4] [nM] | Selectivity Kv1.1/Kv1.3 [4] | IC50 (thallium flux, FLIPR) [5] [nM] | IC50 (IL-17A release, thapsigargin-stimulated rat whole blood) [6] [nM] | anti-CD3 PBMC/IL-2 IC50 [3] [nM]
1 | B1 | 97 | 65 | 1810 | 1200 | 1.5 | > 3000 | > 2000 | 0.25 |  | 
2 | B2 | 28 | 191 |  | 1470 | 0.15 |  | 4280 | 0.055 | 0.57 | 0.06
